Measurements reported in PubChem BioAssay AID1224833 (University of Georgia, 2016)

- Assay: 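Host factors restraining rotavirus as candidate antiviral genes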 (primary screen)
- Cell system: monkey MA104 kidney cells
- Reagent: siRNA pool against human genes, 50 nM
- Duration: 48 h knock-down before infection; read 24 h after infection
- Challenge: infection with rotavirus strain RV3 two days after transfection; infectious dose for this stage not given
- Detection: 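z-score of rotavirus antigen signal per well, from a fluorescent immunoassay, relative to non-targeting control wells on the same plate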
- Reading the numbers: z-score vs non-targeting control: higher = more rotavirus replication than with non-targeting control
- Active means: In these data the active calls have z-score vs non-targeting control at about -1 or lower, or at about 1 or higher
- Meaning of the calls: active = z-score beyond 1 either way; inactive = z-score within 1 of zero
The deposit covers about 12,000 reagents; below is a random part of them. Of all reagents, about 5,600 (46%) got an active call. 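Active calls cover z-scores past 1 in both directions, so they include lowered as well as raised rotavirus replication.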

gene knocked down | z-score vs non-targeting control | outcome
TFAP2C | 1.48 | active
PSME2 | 0.919 | inactive
H4C13 | -0.397 | inactive
AKR1A1 | 0.5 | inactive
PSD | -0.59 | inactive
ZNF804A | -3.57 | active
MTERF4 | 2.25 | active
WFDC13 | 0.138 | inactive
CCDC22 | 0.363 | inactive
PSORS1C2 | -2.79 | active
HPCA | -1.48 | active
AMZ2 | 1.19 | active
RAD23B | 0.578 | inactive
BMP6 | -0.628 | inactive
GPR156 | 0.633 | inactive
RFX5 | -0.8 | inactive
GPN1 | 0.529 | inactive
MAFG | -1.26 | active
THOC7 | -1.23 | active
SERPING1 | 0.342 | inactive
LCE1C | -0.288 | inactive
SLN | -0.851 | inactive
NOXRED1 | 0.469 | inactive
UNC5CL | 0.823 | inactive
RP1 | -1.95 | active
ST3GAL1 | -1.06 | active
GLOD4 | -1.41 | active
OR8U8 | 1.53 | active
TSHZ3 | 3.09 | active
NKAIN4 | 0.142 | inactive
NFE4 | -1.3 | active
AGFG1 | -1.58 | active
MAF | 1.18 | active
NAXD | -1.04 | active
MYORG | -0.487 | inactive
CSTF2T | 0.0191 | inactive
ZNF605 | -0.146 | inactive
CXorf66 | 1.65 | active
ZBED2 | 1.89 | active
CLPTM1L | 0.0105 | inactive
SARS2 | -1.8 | active
PITPNB | -0.735 | inactive
MYL4 | -1.75 | active
SERHL2 | -1.32 | active

The list goes on (10 carried over from the part before).
gene knocked down | z-score vs non-targeting control | outcome
MYORG | -0.487 | inactive
CSTF2T | 0.0191 | inactive
ZNF605 | -0.146 | inactive
CXorf66 | 1.65 | active
ZBED2 | 1.89 | active
CLPTM1L | 0.0105 | inactive
SARS2 | -1.8 | active
PITPNB | -0.735 | inactive
MYL4 | -1.75 | active
SERHL2 | -1.32 | active
RTN4IP1 | -2.14 | active
FIGN | 1.86 | active
CELSR3 | -0.809 | inactive
CD200R1 | -0.653 | inactive
NUP133 | 0.964 | inactive
PODN | 1.75 | active
BRIX1 | 0.468 | inactive
DEF6 | -0.512 | inactive
IFT81 | -1.14 | active
PRTFDC1 | -0.532 | inactive
HAUS4 | 0.876 | inactive
BCHE | -0.677 | inactive
IFT70A | 1.09 | active
PRR13 | -0.649 | inactive
ARHGAP20 | -0.0814 | inactive
AGFG2 | 0.587 | inactive
GJD4 | -0.0956 | inactive
ZDHHC15 | -1.18 | active
IQGAP3 | -0.329 | inactive
PEG3 | -0.942 | inactive
ARHGEF1 | -2.34 | active
LIN7A | -1.59 | active
OR8D4 | 0.314 | inactive
FAM234B | 1.2 | active
GAGE2C | 0.999 | inactive
ATP5F1B | 1.34 | active
OR8J3 | -0.394 | inactive
PKP3 | -0.648 | inactive
DNAH9 | 0.3 | inactive
ABCA12 | 1.25 | active
ADAMTS17 | 1.18 | active
SNRPA | 0.622 | inactive
SLC35A2 | -1.45 | active
FHL5 | 0.162 | inactive
SNAI1 | 0.104 | inactive
C19orf25 | -1.88 | active
LITAF | 1.48 | active
RIPOR2 | 0.186 | inactive
CLGN | -0.801 | inactive
NFE2L2 | -1.57 | active
SLC9C2 | 0.0108 | inactive
ZFC3H1 | -0.867 | inactive
SLC10A1 | -1.48 | active
MTX2 | 0.221 | inactive
TEX13B | -1.68 | active
FOXC1 | -0.635 | inactive
CSRP3 | 0.0906 | inactive
COL23A1 | 1.13 | active
RMND1 | -0.195 | inactive
TSPYL4 | -1.34 | active
CYP1A2 | 1.52 | active
PCDHA6 | 1.08 | active
ZBP1 | -0.114 | inactive
MYT1L | -1.41 | active
DMRTA1 | 0.708 | inactive
AKIRIN2 | -1.16 | active
NLRC3 | 1.54 | active
ASCC1 | 0.471 | inactive
ERBIN | 0.814 | inactive
SRFBP1 | 1.19 | active
ARID4A | 0.909 | inactive
CCL2 | -1.03 | active
FBLN1 | -0.426 | inactive
CORO7 | 1.24 | active
GUCA2B | 0.814 | inactive
TRAPPC8 | 0.22 | inactive
